{
  "source": "paper PMC8190750",
  "about": "(Cell Research, 2021)",
  "system": "C57BL/6 mice",
  "test": "In vivo dose range toxicity study",
  "conditions": "up to 50 mg/kg, repeat dose tail vein injection",
  "data": [
    {"smiles": "CCCCNC(=O)Oc1ccc2cc1Oc1ccc(cc1)CC1c3cc(c(OC)cc3CCN1C)Oc1c(OC)c(OC)cc3c1C(C2)N(C)CC3", "note": "(stereo not shown)", "values": [
      {"measurement": "body weight compared with the control group", "result": "No significant changes in body weight were observed with up to 50 mg/kg of BE-33 compared with the control group, however, in the 50 mg/kg administration group, a pronounced decrease in locomotor activity was observed."}
    ]}
  ]
}
